Laboratory results: PubChem BioAssay AID624099 (ICCB-Longwood, 2012)

- Assay: 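Host factors E2 relies on to silence an HPV18 LCR reporter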 (primary screen)
- Cells: human C33A cervical carcinoma cells (HPV-negative) stably expressing BPV1 E2 and an HPV18 LCR luciferase reporter
- Reagents: siRNA pool against human genes, 40 nM
- Time to read-out: 72 h
- Detection: 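Per-well luciferase luminescence, z-scored on each plate against the plate mean and SD with control wells left out, then averaged across three replicate plates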
- Direction: mean z-score and z-score: higher = stronger reporter signal, weaker E2 silencing
- Hit rule: 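Hit if mean z-score reaches 2 and two or more of three replicate z-scores also reach 2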
In all, the deposit lists about 21,000 reagents; this is an unselected part. 497 of them (2.4%) were called active. 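Higher z means weaker E2 silencing; only reporter increases were scored, and knock-downs that hurt cell survival may mask genuine repressor factors.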 A number with no mark means an inactive call.

Against LOC341370 (retired record) the deposit lists mean z-score 0.25; z-score, replicate A = 0.14; z-score, replicate B = -0.03; z-score, replicate C = 0.65.
With knock-down of KHDRBS3 the results were mean z-score 0.29; z-score, replicate A = 0.16; z-score, replicate B = 0.25; z-score, replicate C = 0.46.
HMCN1 gave mean z-score 0.05; z-score, replicate A = -0.24; z-score, replicate B = 0.3; z-score, replicate C = 0.08.
After knock-down of GSTO2 the results were mean z-score -0.59; z-score, replicate A = -0.69; z-score, replicate B = -0.61; z-score, replicate C = -0.49.
For KIR3DL1 the deposit lists mean z-score 0.3; z-score, replicate A = 0.25; z-score, replicate B = 0.01; z-score, replicate C = 0.64.
LOC391360 (retired record) scored mean z-score 0.17; z-score, replicate A = 0.17; z-score, replicate B = 0.33; z-score, replicate C = 0.
Silencing of PYCR3 gave: mean z-score 1.2; z-score, replicate A = 1.32; z-score, replicate B = 1.19; z-score, replicate C = 1.1.
With knock-down of LOC388519 (retired record) the results were mean z-score -3.62; z-score, replicate A = -3.91; z-score, replicate B = -3.48; z-score, replicate C = -3.46.
With knock-down of LOC286441 (retired record), the screen gave mean z-score 0.02; z-score, replicate A = 0.2; z-score, replicate B = 0.12; z-score, replicate C = -0.25.
HTR4 scored mean z-score 0.25; z-score, replicate A = 0.37; z-score, replicate B = 0.18; z-score, replicate C = 0.21.
After knock-down of TMEM102, the record shows mean z-score -0.84; z-score, replicate A = -0.82; z-score, replicate B = -0.75; z-score, replicate C = -0.94.
Depletion of UBR1 gave: mean z-score -0.62; z-score, replicate A = -0.57; z-score, replicate B = -0.77; z-score, replicate C = -0.53.

2 entries from above, showing only “mean z-score”:
HMCN1 = 0.05
GSTO2 = -0.59
